PubChem BioAssay AID624099 – ICCB-Longwood – 2012
The deposit covers about 21,000 reagents; below is an unselected part. 497 of all reagents (2.4%) were called active. 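Higher z means weaker E2 silencing; only reporter increases were scored, and knock-downs that hurt cell survival may mask genuine repressor factors.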 A number with no mark means an inactive call. The numbers tell different reagents against one gene apart.

Assay: 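Host factors E2 relies on to silence an HPV18 LCR reporter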 (primary screen)
System: human C33A cervical carcinoma cells (HPV-negative) stably expressing BPV1 E2 and an HPV18 LCR luciferase reporter
Knock-down reagent: siRNA pool against human genes, 40 nM
Duration: 72 h
Measured: 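Per-well luciferase luminescence, z-scored on each plate against the plate mean and SD with control wells left out, then averaged across three replicate plates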
Direction: mean z-score and z-score: higher = stronger reporter signal, weaker E2 silencing
Hit rule: 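Hit if mean z-score reaches 2 and two or more of three replicate z-scores also reach 2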

| target gene | reagent no. | mean z-score | z-score, replicate A | z-score, replicate B | z-score, replicate C |
| --- | --- | --- | --- | --- | --- |
| FUT7 | 1 | 0.2 | 0.31 | 0.06 | 0.22 |
| TEKT5 | 1 | -0.75 | -0.85 | -0.62 | -0.77 |
| NKAIN1 | 1 | -0.65 | -0.82 | -0.94 | -0.18 |
| NUDT11 | 1 | -2.28 | -1.17 | -1.98 | -3.69 |
| FAM24B | 1 | -0.4 | -0.46 | -0.31 | -0.41 |
| CXCL6 | 1 | -0.81 | -0.71 | -0.85 | -0.86 |
| MOCS2-DT | 1 | -0.47 | -0.6 | -0.37 | -0.43 |
| PTER | 1 | 0.6 | 0.61 | 0.47 | 0.71 |
| ZBTB41 | 1 | -0.69 | -0.82 | -0.86 | -0.39 |
| GCSH | 1 | 0.96 | 1.17 | 0.97 | 0.74 |
| EPS8L3 | 1 | -0.8 | -0.76 | -0.96 | -0.7 |
| ACADVL | 1 | 0.48 | 0.85 | 0.42 | 0.17 |
| CD27 | 1 | -0.12 | -0.05 | -0.13 | -0.18 |
| XPO7 | 1 | 0.63 | 0.22 | 0.71 | 0.97 |
| TNFRSF10D | 1 | -0.52 | -0.49 | -0.51 | -0.55 |
| ME3 | 1 | -0.46 | -0.23 | -0.84 | -0.32 |
| C10orf1 (retired record) | 1 | 1.37 | 1.92 | 0.97 | 1.22 |
| XCL2 | 1 | 1.83 | 1.78 | 1.73 | 1.97 |
| DRD1 | 1 | -0.28 | -0.17 | -0.38 | -0.29 |
| LOC283586 (retired record) | 1 | -0.27 | -0.2 | -0.57 | -0.03 |
| H2AP | 1 | 0.25 | 0.37 | 0.06 | 0.32 |
| CEP41 | 1 | -1.4 | -1.45 | -1.66 | -1.09 |
| ASIC2 | 1 | -1.62 | -1.54 | -1.78 | -1.53 |
| OR10A4 | 1 | 0.12 | 0.05 | 0.37 | -0.06 |
| SCNN1B | 1 | -0.3 | -0.55 | -0.07 | -0.27 |
| ZZEF1 | 1 | -0.11 | -0.35 | 0.03 | 0 |
| RPE | 1 | 0.79 | 0.55 | 0.95 | 0.86 |
| NFKBIB | 1 | -0.75 | -0.81 | -0.85 | -0.59 |
| CNN2 | 1 | -1.04 | -0.89 | -1.23 | -1 |
| PCSK2 | 1 | 0.58 | 0.38 | 0.64 | 0.71 |
| LOC389243 (retired record) | 1 | 1.07 | 1.54 | 0.65 | 1.02 |
| TMEM184B | 1 | 1.97 | 1.66 | 1.68 | 2.59 |
| PDPR2P | 1 | -1.11 | -1 | -0.93 | -1.41 |
| KHDRBS1 | 1 | 0.21 | 0.71 | 0.04 | -0.12 |
| AGR2 | 1 | -0.05 | 0.01 | -0.06 | -0.09 |
| TSLIG3A | 1 | 0.47 | 0.32 | 0.57 | 0.51 |
| LUC7L | 1 | 0.1 | -0.17 | 0.23 | 0.24 |
| ACTG2 | 1 | 0.11 | -0.04 | -0.1 | 0.46 |
| LOC284912 | 1 | -1.44 | -1.61 | -1.36 | -1.36 |
| ARHGAP27 | 1 | 0.24 | 0.11 | 0.15 | 0.47 |
| ARHGAP27 | 2 | 0.54 | 0.61 | 0.49 | 0.52 |
| TMED8 | 1 | -0.18 | 0 | -0.43 | -0.1 |
| SCUBE2 | 1 | 0.32 | 0.85 | 0.42 | -0.3 |
| CEACAM21 | 1 | 0.16 | 0.25 | 0.09 | 0.16 |
| AKAP14 | 1 | -0.07 | -0.08 | -0.08 | -0.04 |
| KIF14 | 1 | -1.2 | -1.18 | -1.23 | -1.18 |
| FLJ44076 (retired record) | 1 | -0.45 | -0.62 | 0.11 | -0.84 |
| GSTT2 | 1 | -0.51 | -0.6 | -0.79 | -0.16 |
| AKAP7 | 1 | -0.38 | -0.59 | -0.39 | -0.18 |
| SOX3 | 1 | -0.78 | -0.99 | -0.6 | -0.76 |
| LRRC8C | 1 | 0.1 | -0.06 | 0 | 0.37 |
| LOC390278 (retired record) | 1 | 2.15 (active) | 2.3 | 1.88 | 2.27 |
| SH3BP1 | 1 | 1.31 | 1.03 | 1.2 | 1.71 |
| CALHM5 | 1 | 0.44 | 0.43 | 0.74 | 0.16 |
| SQOR | 1 | 0.45 | 0.71 | 0.57 | 0.07 |
| MTERF4 | 1 | -1.03 | -0.9 | -1.04 | -1.15 |
| DAZL | 1 | -0.48 | -0.46 | -0.35 | -0.63 |

Records listed so far whose gene name starts with F or f:
| target gene | reagent no. | mean z-score | z-score, replicate A | z-score, replicate B | z-score, replicate C |
| --- | --- | --- | --- | --- | --- |
| FUT7 | 1 | 0.2 | 0.31 | 0.06 | 0.22 |
| FAM24B | 1 | -0.4 | -0.46 | -0.31 | -0.41 |
| FLJ44076 (retired record) | 1 | -0.45 | -0.62 | 0.11 | -0.84 |
